Compound potency records, mixed from different reports. Data source: NIAID ChemDB in PubChem.

Common to all: tests in culture; agent: Mycobacterium tuberculosis

MIC50, MIC90 and the like: level of inhibition, or share of isolates inhibited. An empty or dashed field is not shown. Percent inhibition refers to the dose given; in toxicity tests it is the harm to the cells. a–b is a range or a potency band. ECn: concentration that inhibits the pathogen or its effect by n%. Conditions beyond the fields shown may differ between rows. MIC bound: limit read from a one-dose screen.

smiles	changes	method	strain	measure	cell line	dose	result
COc1ccc(C2=NNc3n[nH]c(=S)n3N2)cc1OC		BACTEC	H37Rv	MIC bound			>12.5 µg/mL
CO[C@H]1/C=C/O[C@@]2(C)Oc3c(C)c(O)c4c(O)c(c(/C=N/N5CCN(C)CC5)c(O)c4c3C2=O)NC(=O)/C(C)=C\C=C\[C@H](C)[C@H](O)[C@@H](C)[C@@H](O)[C@@H](C)[C@H](OC(C)=O)[C@@H]1C		resazurin	ATCC 25177	MIC			24 µg/mL
COC(=O)c1ccc(Cn2cc(NC(=O)c3noc4c3CC(C(C)(C)C)CC4)cn2)cc1		resazurin	Rv3602c	MIC			>128 µM
Clc1ccc(CSc2nnc3c(n2)[nH]c2ccccc23)cc1		resazurin	H37Rv	inhibition		6.25 µg/mL	37%
CN(/N=C/c1csc2ccccc12)c1ccccc1		resazurin	H37Rv (ATCC 27294)	inhibition		6.25 µg/mL	34%
Cc1ccc(Oc2ccc([N+](=O)[O-])c3cccnc23)cc1			H37Rv	MIC			100 µg/mL
CCCCOc1ccc(N2C(=O)CC(Nc3ccc(Oc4ccc(Cl)cc4)c(Cl)c3)C2=O)cc1			H37Rv	MIC			100 µg/mL
O=C(Nc1ccccc1)N1CCc2c(c(-c3ccccc3)nn2Cc2cn(-c3ccccc3Cl)nn2)C1		visual reading	H37Rv	MIC			196 µM
O=C(O)c1c2n(c3cc(F)c(N4CCC(n5c(=O)[nH]c6ccc(Cl)cc65)CC4)cc3c1=O)CS2	MDR-TB	agar	H37Rv	MIC			6.25 µM
CC(C)(C)C1CCc2onc(C(=O)Nc3cnn(Cc4ccc(Cl)cc4)c3)c2C1			Rv3602c	MIC			>128 µM
O=C(O)/C=C/C(=O)NNc1nc2ccccc2s1		BACTEC	H37Rv	inhibition		12.5 µg/mL	26%
Clc1ccc(Cl)c(N/N=C/c2ccsc2)c1		resazurin	H37Rv (ATCC 27294)	inhibition		6.25 µg/mL	70%
CN1C(=O)CC(Nc2ccc(Oc3ccc(Cl)cc3)c(Cl)c2)C1=O			H37Rv	MIC			100 µg/mL
CC(C)(C)C1CCc2onc(C(=O)Nc3cnn(Cc4ccc5ccccc5c4)c3)c2C1			Rv3602c	MIC			>128 µM
Nc1ccc(Sc2ccc3ccccc3c2)c2ncccc12			H37Rv	MIC			100 µg/mL
COc1ccccc1NC(=O)C1=C(C)NC(C)=C(C(=O)Nc2ccccc2OC)C1c1ccc(Cl)cc1Cl			H37Rv	EC50			<2.5 µg/mL
CC(C)CCOc1ccc(NC(=S)NC2OC(CO)[C@H](O)[C@H]2O)cc1		resazurin	H37Rv	MIC			6.25–12.5 µg/mL
Cn1c2nc(=O)n(-c3ccccc3)c(=O)c-2nc2c1CCCC2		BACTEC	H37Rv	MIC bound			>12.5 µg/mL
COc1ccccc1NC(=O)C1=C(C)NC(C)=C(C(=O)Nc2ccccc2OC)C1c1ccc(N(C)C)cc1			H37Rv	EC50			<2.5 µg/mL
O=C(Nc1ccccc1)N1CCc2c(c(-c3ccccc3)nn2Cc2cn(-c3cccc(Cl)c3)nn2)C1		visual reading	H37Rv	MIC			98.04 µM
CC(C)(C)C1CCc2onc(C(=O)Nc3cnn(Cc4ccccc4Br)c3)c2C1		resazurin	Rv3602c	MIC			>128 µM
COC(=O)CC1C(C)(C)C(=O)C2CC3=C4CC(=O)OC(c5ccoc5)C4(C)CCC3C1(C)C2=O		BACTEC	H37Rv	inhibition		12.5 µg/mL	15%
Clc1ccc(Cl)c(N/N=C/c2c[nH]c3ccccc23)c1		resazurin	H37Rv (ATCC 27294)	inhibition	VERO	6.25 µg/mL	97%
COC(=O)C1C(O)C(C)C(OC(C)=O)C(C)/C=C\C=C(/C)C(=O)Nc2c(C)c(OC(C)=O)c3c(c2O)C(=O)C(C)=C2OCOC(=C23)/C(C)=C/C(C)(O)C(O)C(C)C1O		BACTEC	H37Rv	inhibition		12.5 µg/mL	95%
CCCCCCc1ccc(Oc2ccccc2)c(O)c1			TN587	MIC99			2 µg/mL
CO[C@H]1/C=C/O[C@@]2(C)Oc3c(C)c(O)c4c(O)c(c(/C=N/N5CCN(C)CC5)c(O)c4c3C2=O)NC(=O)/C(C)=C\C=C\[C@H](C)[C@H](O)[C@@H](C)[C@@H](O)[C@@H](C)[C@H](OC(C)=O)[C@@H]1C			Harlingen (His526Tyr)	MIC			>32 µg/mL
O=C(Nc1ccccc1)N1CCc2c(c(-c3ccccc3)nn2Cc2cn(-c3ccc(F)c(F)c3)nn2)C1		visual reading	H37Rv	MIC			195 µM
Cc1[nH]c2ccccc2c1/C=C/[N+](=O)[O-]		resazurin	H37Rv (ATCC 27294)	inhibition		6.25 µg/mL	17%
CO[C@H]1/C=C/O[C@@]2(C)Oc3c(C)c(OS(=O)(=O)c4ccc(C)cc4)c4c(c3C2=O)C(=O)C(/C=N/N2CCN(C)CC2)=C(NC(=O)/C(C)=C\C=C\[C@H](C)[C@H](O)[C@@H](C)[C@@H](O)[C@@H](C)[C@H](OC(C)=O)[C@@H]1C)C4=O		low oxygen		MIC90			4.8 µM
CC(C)(C)C1CCc2onc(C(=O)Nc3cnn(Cc4ccccc4I)c3)c2C1		resazurin	Rv3602c	MIC			>128 µM
CC1OC(n2ccc(NC(=O)c3ccc(NC(=O)C(C)(N)CO)cc3)nc2=O)CCC1OC1OC(C)C(N(C)C)C(O)C1O			PZA-R	MIC			0.8 µg/mL
O=[N+]([O-])c1ccc(N=NNc2ccc([N+](=O)[O-])cc2Cl)c(Cl)c1		luminescence	H37Ra-lux	EC90			7.27 µM
CN1C(=S)C2=C(c3ccccc3)N(C)C(=S)C2=C1c1ccccc1		BACTEC	H37Rv	MIC bound			>12.5 µg/mL
CC(C)(C)NC(=O)C1c2ccccc2CCN1c1cc2c(=O)c(C(=O)O)c3n(c2cc1F)CS3		agar	H37Rv	MIC			3.24 µM
Cc1ccc(Sc2ccc([N+](=O)[O-])c3cccnc23)cc1			H37Rv	MIC			100 µg/mL
CO[C@H]1/C=C/O[C@@]2(C)Oc3c(c4c(O)cc(c5nn(CCO)c(c3C)c45)=NC(=O)/C(C)=C\C=C\[C@H](C)[C@H](O)[C@@H](C)[C@@H](O)[C@@H](C)[C@H](OC(C)=O)[C@@H]1C)C2=O		resazurin		MIC90			>5.4 µM
O=C1CC(Nc2ccc(Oc3ccc(Cl)cc3)c(Cl)c2)C(=O)N1c1ccc(Sc2ccc([N+](=O)[O-])cc2)cc1			H37Rv	MIC			100 µg/mL
O=[N+]([O-])c1ccc(Oc2cc(Cl)ccc2Cl)c2ncccc12			H37Rv	MIC			10 µg/mL
CC(C)(C)C1CCc2onc(C(=O)O)c2C1			Rv3602c	MIC			>128 µM
Cc1onc(-c2c(F)cccc2F)c1C(=O)N1CCN(c2cc3c(=O)c(C(=O)O)c4n(c3cc2[N+](=O)[O-])CS4)CC1		agar	H37Rv	MIC			5.36 µM
Cc1nc2c(C)cccn2c1C(=O)NNC(=S)Nc1ccccc1			H37Rv	inhibition		12.5 µg/mL	55%
O=C(O)c1c2n(c3cc([N+](=O)[O-])c(N4CCC(N5CCCCC5)CC4)cc3c1=O)CS2	MDR-TB	agar	H37Rv	MIC			1.75 µM
COc1ccc(N=C2C(=Nc3ccc(OC)cc3)N(S(=O)(=O)c3ccccc3)C(=S)N2c2ccc(OC)cc2)cc1		BACTEC	H37Rv	inhibition		12.5 µg/mL	0%
COc1ccc(Cc2noc(NC(=O)c3noc4c3CC(C(C)(C)C)CC4)c2C(N)=O)cc1		resazurin	Rv3602c	MIC			>128 µM
COC(=O)C(Cc1nc2ccc(Cl)cc2[nH]c1=O)/C(=N\N)C(=O)Nc1cc(C)c(Cl)cc1S(=O)(=O)O		BACTEC	H37Rv	MIC			≥12.5 µg/mL
CC(C)CCOc1ccc(NC(=S)Nc2ccc(OCCC(C)C)cc2)cc1		resazurin	H37Rv	MIC			2.5–5 µg/mL
CC(=O)OC1CC2CC1C/C2=N\Nc1ccc(C)cc1		BACTEC	H37Rv	MIC bound			>12.5 µg/mL
O=C(Nc1ccccc1)N1CCc2c(c(-c3ccccc3)nn2Cc2cn(-c3ccccc3Br)nn2)C1		visual reading	H37Rv	MIC			180 µM
C[C@H]1COc2c(N3CCN(C)CC3)c(F)cc3c(=O)c(C(=O)O)cn1c23			5S	MIC			0.5 µg/mL
O=C(Nc1ccccc1)N1CCc2c(c(-c3ccccc3)nn2Cc2cn(-c3ccc(C(F)(F)F)cc3)nn2)C1		visual reading	H37Rv	MIC			91.98 µM
O=[N+]([O-])c1cccnc1NCC1(CO)CCCC1		resazurin	H37Rv	inhibition		6.25 µg/mL	2%
CO[C@H]1/C=C/O[C@@]2(C)Oc3c(C)c(NCCO)c4c(c3C2=O)C(O)C(/C=N/N2CCN(C)CC2)=C(NC(=O)/C(C)=C\C=C\[C@H](C)[C@H](O)[C@@H](C)[C@@H](O)[C@@H](C)[C@H](OC(C)=O)[C@@H]1C)C4=O		low oxygen		MIC90			>18.5 µM
O=[N+]([O-])c1ccc(S(=O)(=O)c2nc3ccccc3o2)c2ncccc12			H37Rv	MIC			40 µg/mL
CC1=C(C(=O)Nc2ccccc2Cl)C(c2ccccc2Cl)C(C(=O)Nc2ccccc2Cl)=C(C)N1			H37Rv	inhibition		2.5 µg/mL	18%
NNC(=O)CC(NN)c1ccccc1O		BACTEC	H37Rv	MIC bound			>12.5 µg/mL
O=C(Nc1ccccc1)N1CCc2c(c(-c3ccccc3)nn2Cc2cn(-c3ccc(Cl)cc3)nn2)C1		visual reading	H37Rv	MIC			196 µM
Cn1cc(/C=N/N=C/c2cn(C)c3ccccc23)c2ccccc21		resazurin	H37Rv (ATCC 27294)	inhibition		6.25 µg/mL	2%
CC(=O)NC[C@H]1CN(c2ccc(N3CCOCC3)c(F)c2)C(=O)O1			H37Rv	MIC			0.5 µg/mL
COc1cc(N=Nc2c(S(=O)(=O)O)cc3cc(NC(=O)Nc4ccc5c(O)c(N=Nc6ccc7cc(S(=O)(=O)O)ccc7c6)c(S(=O)(=O)O)cc5c4)ccc3c2O)c(C)cc1N		BACTEC	H37Rv	MIC bound			>12.5 µg/mL
CNc1c(C)c2c3c4c1C(=O)C(=C(/C=N/N1CCN(C)CC1)C4O)NC(=O)/C(C)=C\C=C\[C@H](C)[C@H](O)[C@@H](C)[C@@H](O)[C@@H](C)[C@H](OC(C)=O)[C@H](C)[C@@H](OC)/C=C/O[C@@](C)(O2)C3=O		resazurin		MIC90			4 µM
O=C(O)c1c2n(c3cc([N+](=O)[O-])c(N4CCN(C(=O)c5ccco5)CC4)cc3c1=O)CS2		agar	H37Rv	MIC			1.71 µM
O=C1CC(Nc2ccc(Oc3ccc(Cl)cc3)c(Cl)c2)C(=O)N1c1ccc(Cl)cc1			H37Rv	MIC			>200 µg/mL
CC[C@@H](CO)NCCN[C@@H](CC)CO		resazurin	ATCC 27294	MIC			14.4 µM
O=[N+]([O-])c1ccc(Sc2nc3ccccc3[nH]2)c2ncccc12			H37Rv	MIC			40 µg/mL
CN(C)C(=S)SCCC(N)C(=O)O		BACTEC	H37Rv	MIC			≥128 µg/mL
O=C(O)c1c2n(c3cc([N+](=O)[O-])c(N4CCN(Cc5ccc6c(c5)OCO6)CC4)cc3c1=O)CS2		agar	H37Rv	MIC			0.79 µM
C/C(=N\NC(=O)c1ccccc1O)c1cccc(/C(C)=N/NC(=O)c2ccccc2O)n1		BACTEC	H37Rv	inhibition		12.5 µg/mL	38%
CCCOc1ccc(N2C(=O)CC(Nc3ccc(Oc4ccc(Cl)cc4)c(Cl)c3)C2=O)cc1			H37Rv	MIC			100 µg/mL
O=C(N/N=C/c1ccc(Cl)c(Cl)c1)C(=O)N/N=C/c1ccc(Cl)c(Cl)c1		BACTEC	H37Rv	inhibition		12.5 µg/mL	23%
CC1=C(C(=O)Nc2cccc([N+](=O)[O-])c2)C(c2ccccc2)C(C(=O)Nc2cccc([N+](=O)[O-])c2)=C(C)N1			H37Rv	inhibition		2.5 µg/mL	94%
Cc1ccccc1Sc1ccc(N)c2cccnc12			H37Rv	MIC			40 µg/mL
CN(/N=C/c1ccsc1)c1ccccc1		resazurin	H37Rv (ATCC 27294)	inhibition		6.25 µg/mL	50%
CC1=C[C@@]23[C@H](C=C(C(=O)O)[C@@H]2COC(=O)[C@]32CO2)[C@H]1C		BACTEC	H37Rv	inhibition		12.8 µg/mL	96%
O=C1CC(Nc2ccc(Oc3ccc(Cl)cc3)c(Cl)c2)C(=O)N1c1cnc2ccccc2c1			H37Rv	MIC			100 µg/mL
O=[N+]([O-])c1ccc(Sc2ccc(Cl)c(Cl)c2)c2ncccc12			H37Rv	MIC			20 µg/mL
O=[N+]([O-])c1ccc(NN=C(c2ccccc2)c2ccccn2)nc1		resazurin	H37Rv	inhibition		6.25 µg/mL	29%
Cc1nc2c(C)cccn2c1C(=O)NNC(=S)Nc1ccc(Br)cc1			H37Rv	MIC			>12.5 µM
C[N+](C)=c1ccc2nc3c(cc(NCCCNc4cc5oc6cc(=[N+](C)C)ccc-6nc5c5ccccc45)c4ccccc43)oc-2c1.[Cl-].[Cl-]		BACTEC	H37Rv	inhibition		12.5 µg/mL	93%
O=C(Nc1ccccc1)N1CCc2c(c(-c3ccccc3)nn2Cc2cn(-c3ccccc3F)nn2)C1		visual reading	H37Rv	MIC			>200 µM

The last 7 rows once more:

smiles	changes	method	strain	measure	cell line	dose	result
CC1=C[C@@]23[C@H](C=C(C(=O)O)[C@@H]2COC(=O)[C@]32CO2)[C@H]1C		BACTEC	H37Rv	inhibition		12.8 µg/mL	96%
O=C1CC(Nc2ccc(Oc3ccc(Cl)cc3)c(Cl)c2)C(=O)N1c1cnc2ccccc2c1			H37Rv	MIC			100 µg/mL
O=[N+]([O-])c1ccc(Sc2ccc(Cl)c(Cl)c2)c2ncccc12			H37Rv	MIC			20 µg/mL
O=[N+]([O-])c1ccc(NN=C(c2ccccc2)c2ccccn2)nc1		resazurin	H37Rv	inhibition		6.25 µg/mL	29%
Cc1nc2c(C)cccn2c1C(=O)NNC(=S)Nc1ccc(Br)cc1			H37Rv	MIC			>12.5 µM
C[N+](C)=c1ccc2nc3c(cc(NCCCNc4cc5oc6cc(=[N+](C)C)ccc-6nc5c5ccccc45)c4ccccc43)oc-2c1.[Cl-].[Cl-]		BACTEC	H37Rv	inhibition		12.5 µg/mL	93%
O=C(Nc1ccccc1)N1CCc2c(c(-c3ccccc3)nn2Cc2cn(-c3ccccc3F)nn2)C1		visual reading	H37Rv	MIC			>200 µM